Source: article PMC11546692 (International Journal of Molecular Sciences, 2024)

Columns and labels:
[1] = test system: MiaPaCa-2 human pancreatic cancer cells xenograft; test: Subcutaneous MiaPaCa-2 xenograft tumor growth in Scid mice; assay type: in vivo
Skp2 = Skp2 immunohistochemical staining of xenografted tumors; assay type: in vivo, Scid mice
[2] = GFAAS arsenic distribution in mouse tissue; conditions: PAO 50 μg/kg + Gem 50 mg/kg treated mice
MiaPaCa-2 cells = test: MTT assay with or without macropinocytosis inhibitor amiloride; conditions: MiaPaCa-2, 24 h

In the case of `O=[As]c1ccccc1` (centres unmarked), the “pancreatic tumor growth (tumor volume, tumor weight)” value ([1]; 50 μg/kg i.p. every other day, vs saline control) is reported as “significantly suppressed pancreatic tumor growth”, the “further reduction in tumor volumes and weight on top of Gem” value ([1]; PAO 50 μg/kg i.p. every other day plus Gem 50 mg/kg every 4 days, vs Gem alone) is reported as “did not reach statistical significance” and the “levels of Skp2 in tumors” value (Skp2; 50 μg/kg i.p., vs non-treatment control, IHC) is reported as “reduced”. For the same molecule, the “levels of Skp2 in tumors, combination with gemcitabine” value (Skp2; PAO 50 μg/kg plus gemcitabine 50 mg/kg, vs single reagent treatments) was “did not further reduce the expression of Skp2”, the “As concentration in livers relative to hearts” value [2] was “twice” and the “arsenic (As) in brain” value [2] was “no detectable As”. The “arsenic (As) in heart” value [2] was “significant As detected”, the “arsenic (As) in kidney” value [2] was “no detectable As” and the “arsenic (As) in liver” value [2] was “significant As detected”. It also gave an IC50 (MiaPaCa-2 cells; amiloride 25 μM) of 1500 nM and an IC50 (MiaPaCa-2 cells; no amiloride) of 1500 nM.
